Laboratory results from ChEMBL document CHEMBL4145508 (Eur J Med Chem, 2018).

Legend:
[1] = Selectivity index, ratio of CC50 for chicken embryo fibroblasts to EC50 for influenza A virus chicken/china/1220/2012(H5N1)
[2] = Selectivity index, ratio of CC50 for chicken embryo fibroblasts to EC50 for influenza A virus duck/Guangdong/674/2014(H5N6)

CCC(CC)O[C@@H]1C=C(C(=O)N[C@@H](C(=O)O)C(C)C)C[C@H](N)[C@H]1NC(C)=O
Ratio CC50/EC50 [1]: > 200
Ratio CC50/EC50 [2]: > 750
